Experimental data taken from PubChem BioAssay AID1053136 (The Scripps Research Institute Molecular Screening Center, 2014).
This is a selection; strong and weak results do not stand in their true shares. Calls of active or inactive are those of the source. Rule as the data show it: active = inhibition above about 14%; inactive = the rest.

Test system: HIV-1 integrase / human LEDGF/p75 complex
Experiment: blockers of LEDGF/p75-dependent integrase activity – biochemical, TR-FRET, confirmation (AID 1053136)
Settings: TR-FRET LEDGF/p75-dependent HIV-1 integration, at 3.7 µM, active compounds read high

Row | SMILES | inhibition
1 | CCOC(=O)c1ccc(NP(C)(=O)Oc2ccc(Cl)cc2)cc1 (stereo unspecified) | inactive: -0.49%
